Pooled drug test results. Numbers come from NIAID ChemDB, via PubChem.

Common to all: whole-cell or culture tests; agent: HIV-1; cell line: CEM; endpoint: EC50

ECn is the concentration giving n% inhibition of infection, replication or growth.

smiles	strain	mutations	method	conditions	result
O=C(NC1(C(=O)O)CCCCC1)c1ccccc1SSc1ccccc1C(=O)NC1(C(=O)O)CCCCC1	IIIB	-	cytopathic effect / XTT	-	6.9 µM
Cc1cc(=O)c2c(O)c3c(O)cc(O)c4c5c(O)cc(O)c6c(O)c7c(=O)cc(C)c8c1c2c(c34)c(c65)c78	-	-	ELISA	14 d	<1 µg/mL
Cc1cccc(CS(=O)(=O)c2cccc[n+]2[O-])c1	IIIB	RT-Y181C	syncytia	-	>20 µg/mL
O=C(N[C@@H](Cc1ccccc1)C(=O)O)c1ccccc1SSc1ccccc1C(=O)N[C@@H](Cc1ccccc1)C(=O)O	IIIB	-	cytopathic effect / XTT	-	>100 µM
Cc1occc1C(=S)Nc1ccc(Cl)c(SCC(=O)OC(C)(C)C)c1	-	-	syncytia	-	0.312 µM
CN1CCN(C(=O)c2ccc3c(=O)c4ccccc4[nH]c3c2)CC1	PYR-resistant (RT Y181C)	RT-Y181C	syncytia	-	0.5 µg/mL
Cc1cccc(C)c1N1C(=O)c2ccccc2C1=O	IIIB	-	syncytia	-	>784 µM
O=C(O)CC[C@H](CC1CCCCC1)NC(=O)c1ccccc1SSc1ccccc1C(=O)N[C@H](CCC(=O)O)CC1CCCCC1	IIIB	-	cytopathic effect / XTT	-	>8.5 µM
CC[C@H](C)[C@H](NC(=O)c1ccccc1SSc1ccccc1C(=O)N[C@H](C(=O)O)[C@@H](C)CC)C(=O)O	RF1	-	XTT	-	6.3 µM
COC1=C(C2=C(Cl)C(=O)c3ccccc3C2=O)C(=O)c2ccc(OC)cc2C1=O	IIIB	-	cytopathic effect / MTT	-	1.2 µM
O=C(N[C@@H](Cc1ccccc1)C(=O)C(F)(F)CN(Cc1ccccc1)S(=O)(=O)c1ccccc1)O[C@H]1CCOC1	IIIB	-	p24	-	<1 µM
Cc1ccc(C)c(CSc2c(Cl)ccc[n+]2[O-])c1	IIIB	RT-V179D	syncytia	-	0.32 µg/mL
CC(C)(C)C[C@H](NC(=O)c1ccccc1SSc1ccccc1C(=O)N[C@@H](CC(C)(C)C)C(=O)O)C(=O)O	IIIB	-	cytopathic effect / XTT	-	5.7 µM
Cc1cn([C@H]2C=C[C@@H](OC(C(=O)O)P(=O)(O)O)C2)c(=O)[nH]c1=O	IIIB	-	syncytia	-	>250 µM
Cc1cc(C)cc(Oc2c(C(C)C)c(=O)[nH]c(=O)n2CC2CC2)c1	IIIB	-	XTT	-	0.0002 µM
NC(=O)CC[C@H](NC(=O)c1ccccc1SSc1ccccc1C(=O)N[C@@H](CCC(N)=O)C(=O)O)C(=O)O	IIIB	-	cytopathic effect / XTT	-	18.3 µM
O=C1c2ccc(Cl)cc2C(=O)N1C12CC3CC(CC(C3)C1)C2	IIIB	-	syncytia	-	>25 µM
CC(C)(C)S(=O)(=O)N(CC1CCCC1)C[C@@H](O)CN(CCc1ccccc1)C(=O)c1ccccc1	IIIB	-	p24	-	<1 µM
Cc1ccc(C)c(C(C)S(=O)(=O)c2c(C)ccc[n+]2[O-])c1	IIIB	RT-E103K	syncytia	-	4 µg/mL
CCC1=C(C(=O)Nc2ccc(Cl)c(C(=O)OC(C)C)c2)SCCO1	IIIB	-	syncytia	-	0.04 µg/mL
COc1ccc2c(c1)C(=O)C(C1=C(Cl)C(=O)c3ccccc3C1=O)=C(Cl)C2=O	IIIB	-	cytopathic effect / MTT	-	3.4 µM
C=CCOc1cc(NC(=S)c2ccsc2C)ccc1Cl	-	-	syncytia	-	0.108 µM
Cc1ccc(C)c(C(C)S(=O)(=O)c2ccc(C)c[n+]2[O-])c1	IIIB	RT-Y181C	syncytia	-	60 µg/mL
CCCC1=C(C(=O)Nc2ccc(Cl)c(C(=O)OC)c2)SCCO1	TSAO-resistant (RT E138K)	RT-E138K	syncytia	-	>10 µg/mL
CCc1c(Oc2cc(C)cc(C)c2)n(Cc2ccccc2)c(=O)[nH]c1=O	IIIB	-	XTT	-	0.004 µM
COc1nc(N)c(N=C[C@@H](O)[C@H](O)[C@H](O)CO)c(=O)n1C	-	-	cytopathic effect / XTT	-	140 µM
O=C(c1ccccc1)N(CCc1ccccc1)C[C@H](O)CN(CC1CCCC1)S(=O)(=O)c1cc(C(F)(F)F)cc2[nH]cnc12	IIIB	-	p24	-	<1 µM
COC(=O)C[C@H](CCCCN)NC(=O)c1ccccc1SSc1ccccc1C(=O)N[C@@H](CCCCN)CC(=O)OC	IIIB	-	cytopathic effect / XTT	-	10.4 µM
NC1=C(C2=C(Cl)C(=O)c3ccccc3C2=O)C(=O)c2ccccc2C1=O	IIIB	-	cytopathic effect / MTT	-	3.5 µM
CCc1c(C(=O)c2cc(C)cc(C)c2)n(CC2CC=CC2)c(=O)[nH]c1=O	IIIB	-	XTT	-	0.0002 µM
O=C(NC(C(=O)O)c1ccccc1)c1ccccc1SSc1ccccc1C(=O)NC(C(=O)O)c1ccccc1	-	-	XTT	-	>100 µM
Cc1cn([C@@H]2OC(O[Si](C)(C)C(C)(C)C)C3(OS(=O)(=O)C=C3NCCC(=O)OCc3ccccc3)C2O[Si](C)(C)C(C)(C)C)c(=O)n(C)c1=O	IIIB	-	syncytia	-	>250 µM
O=C(O)C(O[C@@H]1C=C[C@H](n2cc(F)c(=O)[nH]c2=O)C1)P(=O)(O)O	IIIB	-	syncytia	-	>250 µM
CC(C)=CCOc1cc(NC(=S)c2ccoc2C)ccc1Cl	IIIB	RT-V179D	syncytia	-	0.003 µg/mL
COc1ccc2c(c1)C(=O)C(C1=C(O)c3ccccc3C(=O)C1=O)=C(I)C2=O	IIIB	-	cytopathic effect / MTT	-	4.2 µM
NC12CC3CC(CC(C3)C1)C2	IIIB	-	syncytia	-	>662 µM
CC(C)c1c(Cc2ccccc2)n(COCc2ccccc2)c(=O)[nH]c1=O	IIIB	-	cytopathic effect	-	0.016 µM
CC(C)CN(C(=O)C(=O)C(=O)C(Cc1ccccc1)NC(=O)OC(C)(C)C)S(=O)(=O)c1ccccc1	IIIB	-	p24	-	<1 µM
CCCOC(=O)c1ccc(C)c(NC(=O)C2=C(C)OCCS2)c1	Nevirapine-resistant (RT V106A)	RT-V106A	syncytia	-	>10 µg/mL
COC(=O)[C@H](CC(C)C)NC(=O)c1ccccc1SSc1ccccc1C(=O)N[C@@H](CC(C)C)C(=O)OC	IIIB	-	cytopathic effect / XTT	-	>100 µM
O=C(Nc1ccc(O)cc1)c1ccccc1SSc1ccccc1C(=O)Nc1ccc(O)cc1	-	-	XTT	-	>33 µM
COc1ccc(S(=O)(=O)N(CC(C)C)C[C@@H](O)CCNc2cc(C(C)(C)C)sc2C(N)=O)cc1	IIIB	-	p24	-	<1 µM
CC(C)Oc1ccc(NC(=O)c2ccccc2SSc2ccccc2C(=O)Nc2ccc(OC(C)C)cc2)cc1	-	-	cytopathic effect / XTT	-	12 µM
COc1ccc2c(c1)C(=O)C(Br)=C(C1=C(O)c3ccccc3C(=O)C1=O)C2=O	IIIB	-	cytopathic effect / MTT	-	2 µM
Cc1cc(C)cc(C(=O)c2c(C(C)C)c(=O)[nH]c(=O)n2CC2=CCCC2)c1	IIIB	-	XTT	-	0.0005 µM
CCNC(=O)c1ccccc1SSc1ccccc1C(=O)NCC	-	-	cytopathic effect / XTT	-	>5.1 µM
Nc1cccc(S(=O)(=O)N(CC2CCCC2)C[C@@H](O)CN(CCc2ccccc2)C(=O)OC2COCOC2)c1	IIIB	-	p24	-	<0.1 µM
COc1ccc(C)cc1CS(=O)(=O)c1cccc[n+]1[O-]	IIIB	RT-L100I	syncytia	-	40 µg/mL
O=C(NC1CCCCC1)c1ccccc1SSc1ccccc1C(=O)NC1CCCCC1	-	-	cytopathic effect / XTT	-	3.7 µM
CC1=C(C(=O)Nc2ccc(C)c(C(=O)OC(C)C)c2)SCCO1	TIBO-resistant (RT L100I)	RT-L100I	syncytia	-	7 µg/mL
CSCC[C@H](NC(=O)c1ccccc1SSc1ccccc1C(=O)N[C@@H](CCSC)C(=O)O)C(=O)O	IIIB	-	cytopathic effect / XTT	-	43 µM
CC(=O)N[C@@H](Cc1ccccc1)C(=O)N[C@H](C(=O)N[C@@H](CC(C)C)[C@@H](O)CC(=O)N[C@@H](CC(C)C)C(=O)N[C@@H](Cc1ccccc1)C(N)=O)C(C)C	-	-	-	-	3.37 µM
Cc1occc1C(=S)Nc1ccc(Cl)c(OCCC(C)C)c1	-	-	syncytia	-	0.019 µM
CCC(=O)Oc1ccc(NC(=O)C2=C(C)OCCS2)cc1C(=O)OC(C)C	TIBO-resistant (RT L100I)	RT-L100I	syncytia	-	>10 µg/mL
Nc1ccccc1SSc1ccccc1N	-	-	XTT	-	>53 µM
O=C(NNC(=O)c1ccccc1SSc1ccccc1C(=O)NNC(=O)c1ccncc1)c1ccncc1	-	-	cytopathic effect / XTT	-	8.2 µM
CC1=C(C(=O)Nc2ccc(Cl)c(C(=O)OC3CCCCC3)c2)SCCO1	PYR-resistant (RT Y181C)	RT-Y181C	syncytia	-	0.5 µg/mL
O=C(Nc1ccc(Br)cc1)c1ccccc1SSc1ccccc1C(=O)Nc1ccc(Br)cc1	-	-	cytopathic effect / XTT	-	17 µM
NS(=O)(=O)c1ccc(NC(=O)c2ccccc2COc2ccccc2C(=O)Nc2ccc(S(N)(=O)=O)cc2)cc1	-	-	XTT	-	>100 µM

The first 5 rows once more:

smiles	strain	mutations	method	conditions	result
O=C(NC1(C(=O)O)CCCCC1)c1ccccc1SSc1ccccc1C(=O)NC1(C(=O)O)CCCCC1	IIIB	-	cytopathic effect / XTT	-	6.9 µM
Cc1cc(=O)c2c(O)c3c(O)cc(O)c4c5c(O)cc(O)c6c(O)c7c(=O)cc(C)c8c1c2c(c34)c(c65)c78	-	-	ELISA	14 d	<1 µg/mL
Cc1cccc(CS(=O)(=O)c2cccc[n+]2[O-])c1	IIIB	RT-Y181C	syncytia	-	>20 µg/mL
O=C(N[C@@H](Cc1ccccc1)C(=O)O)c1ccccc1SSc1ccccc1C(=O)N[C@@H](Cc1ccccc1)C(=O)O	IIIB	-	cytopathic effect / XTT	-	>100 µM
Cc1occc1C(=S)Nc1ccc(Cl)c(SCC(=O)OC(C)(C)C)c1	-	-	syncytia	-	0.312 µM

Lines come from different laboratories, so protocols vary. Blank or dashed fields: not listed here.